## Sequence variants of PSTVd loop 15 after infection

Reference: Wu et al. 2024, doi:10.1371/journal.ppat.1012142.

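A pool of all variants was put on leaves of three Nicotiana benthamiana plants. Progeny were sequenced from the inoculated region (day 5), the margin of the inoculated leaf (day 10) and systemic leaves (day 12).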

Region: loop 15 of PSTVd (intermediate strain), upper and lower strand joined, each 5' to 3', the first 7 letters being the upper strand, closing pairs included. Wild type: GGAAACCGCUACUAC. Varied positions (N): GGAAACCGNNNNNNC.

Values are reads per thousand in the sample; higher means more abundant, 0 means not found.
Each value is the mean of three plants.
"Pool" is the share in the plasmid pool used as inoculum, on the same scale.
The inoculated region was read from the minus strand, the other sites from the plus strand.
IR is the inoculated region, LM the leaf margin, Sys the systemic leaves.
Samples held 43,870 to 66,106 reads, so the smallest values rest on one or two reads.
The authors trace changes outside the varied positions to PCR and sequencing errors or to mutation in the plant; presence does not show that a variant is infectious alone.
Wild type was 33.9 per thousand in the pool and the most common sequence in every sample (inoculated region 202, 200, 159; leaf margin 724, 746, 710; systemic leaves 856, 883, 880).

| sequence | pool | IR | LM | Sys |
|---|---|---|---|---|
| GGAAACCGGAUGUGC | 0.256 | 0.0895 | 0.00742 | 0 |
| GGAAACCGCCGUUAC | 0.272 | 0.359 | 0.0733 | 0.108 |
| GGAAACCGUGGCUAC | 0.208 | 0.307 | 0.0969 | 0.0464 |
| GGAAACCGCGGUGAC | 0.240 | 0.102 | 0.00668 | 0 |
| GGAAACCGAGCUGGC | 0.256 | 0.0739 | 0 | 0.00537 |
| GGAAACCGCCUACUC | 0.176 | 0.0743 | 0.0187 | 0.00537 |
| GGAAACCGCAAACGC | 0.224 | 0.124 | 0.00539 | 0 |
| GGAAACCGCGUCAAC | 0.160 | 0.0735 | 0 | 0 |
| GGAAACCGGUUCGGC | 0.256 | 0.0867 | 0.0121 | 0 |
| GGAAACCGUUAGACC | 0.256 | 0.255 | 0.103 | 0.0385 |
| GGAAACCGUUGCCAC | 0.272 | 0.0904 | 0.0121 | 0 |
| GGAAACCGUGUAACC | 0.176 | 0.0739 | 0.0108 | 0 |
| GGAAACCGGCAAUUC | 0.240 | 0.308 | 0.151 | 0.0161 |
| GGAAACCGGCGCGAC | 0.208 | 0.0797 | 0.0148 | 0 |
| GGAAACCGGGAUGAC | 0.304 | 0.102 | 0 | 0 |
| GGAAACCGGGGGACC | 0.144 | 0.115 | 0.0121 | 0 |
| GGAAACCGGAUUAGC | 0.192 | 0.112 | 0.0187 | 0.00537 |
| GGAAACCGCCAUUCC | 0.160 | 0.312 | 0.114 | 0.0591 |
| GGAAACCGGGUGUGC | 0.192 | 0.108 | 0.0308 | 0 |
| GGAAACCGGAAUCGC | 0.144 | 0.0838 | 0.00668 | 0 |
| GGAAACCGUAGCAGC | 0.224 | 0.0621 | 0.00539 | 0 |
| GGAAACCGCGACGAC | 0.160 | 0.0741 | 0.0223 | 0.0366 |
| GGAAACCGUGUCCGC | 0.192 | 0.0566 | 0.00668 | 0 |
| GGAAACCGGGCUGAC | 0.160 | 0.116 | 0.0182 | 0 |
| GGAAACCGUUGACAC | 0.240 | 0.0847 | 0 | 0 |
| GGAAACCGAGGCCGC | 0.160 | 0.100 | 0.0134 | 0.0130 |
| GGAAACCGAAAUGUC | 0.192 | 0.135 | 0.0141 | 0.0130 |
| GGAAACCGGAAGCGC | 0.256 | 0.115 | 0.0175 | 0 |
| GGAAACCGCAGCGUC | 0.256 | 0.0919 | 0.0141 | 0 |
| GGAAACCGAGUUGGC | 0.224 | 0.114 | 0.00668 | 0 |
| GGAAACCGCCCUUCC | 0.208 | 0.0894 | 0.00742 | 0 |
| GGAAACCGCUAAUCC | 0.304 | 0.337 | 0.101 | 0.0716 |
| GGAAACCGGCCGGUC | 0.240 | 0.0909 | 0.00742 | 0 |
| GGAAACCGCCCUCCC | 0.176 | 0.167 | 0 | 0 |
| GGAAACCGCAUUUGC | 0.240 | 0.118 | 0 | 0 |
| GGAAACCGGAGUCCC | 0.224 | 0.0891 | 0 | 0 |
| GGAAACCGAGGAAGC | 0.256 | 0.0904 | 0 | 0 |
| GGAAACCGUUUUGGC | 0.336 | 0.146 | 0 | 0 |
| GGAAACCGGUCCAAC | 0.240 | 0.149 | 0.0208 | 0.0107 |
| GGAAACCGCAAGGGC | 0.240 | 0.0946 | 0.00539 | 0 |
| GGAAACCGUCUACUC | 0.160 | 0.106 | 0.00668 | 0.00537 |
| GGAAACCGUAGCGGC | 0.128 | 0.0867 | 0.0175 | 0 |
| GGAAACCGCGCUACC | 0.304 | 0.106 | 0.00742 | 0 |
| GGAAACCGAGCUCGC | 0.336 | 0.264 | 0.00668 | 0 |
| GGAAACCGAACUUAC | 0.192 | 0.365 | 0.0683 | 0.0215 |
| GGAAACCGAGUGGAC | 0.256 | 0.0931 | 0.00742 | 0 |
| GGAAACCGUAUUUGC | 0.192 | 0.0938 | 0.00668 | 0 |
| GGAAACCGGAGCAAC | 0.160 | 0.102 | 0.00539 | 0 |
| GGAAACCGAUACUCC | 0.112 | 0.273 | 0.128 | 0.0667 |
| GGAAACCGAGAAGCC | 0.256 | 0.0769 | 0.00742 | 0 |
| GGAAACCGUGCAUGC | 0.160 | 0.0667 | 0 | 0 |
| GGAAACCGAUAUCUC | 0.128 | 0.444 | 0.102 | 0.0215 |
| GGAAACCGGCCGUAC | 0.144 | 0.393 | 0.0973 | 0.0692 |
| GGAAACCGCAACCUC | 0.304 | 0.0957 | 0 | 0.00537 |
| GGAAACCGACACCCC | 0.208 | 0.101 | 0.00668 | 0 |
| GGAAACCGGGCCGGC | 0.240 | 0.0751 | 0 | 0.00537 |
| GGAAACCGUACGAGC | 0.272 | 0.158 | 0.0128 | 0 |
| GGAAACCGUGGGUUC | 0.224 | 0.316 | 0.0759 | 0.0509 |
| GGAAACCGGAUCGUC | 0.416 | 0.0893 | 0 | 0 |
| GGAAACCGUACAAUC | 0.288 | 0.0893 | 0.0121 | 0 |
| GGAAACCGUGUGAUC | 0.192 | 0.0902 | 0.0187 | 0 |

Extract of 3 entries:

For GGAAACCGGAUCGUC (pool 0.416) the result was IR 0.0893; LM 0; Sys 0.
For GGAAACCGGAUGUGC (pool 0.256) the result was IR 0.0895; LM 0.00742; Sys 0.
For GGAAACCGUGUCCGC (pool 0.192) the result was IR 0.0566; LM 0.00668; Sys 0.